Measurements: patent publication US20090047272A1

Target: HIV protein gp120 on HIV-infected MT-4 cells (HIV)
Assay: cell-based or functional assay

Bovine DNase-PEG-CD4 complex (from UniProt P00639 23-282; P01730 26-396)
Mean RT Activity [%] in HIV-infected MT-4 cells at 100 UA/ml: 11% | Mean RT Activity [%] in HIV-infected MT-4 cells at 500 UA/ml: 4% | p24 [%] in HIV-infected MT-4 cells at 100 UA/ml: 6.5% | p24 [%] in HIV-infected MT-4 cells at 500 UA/ml: 2.3%
